# Data published in the supplement of paper PMC9931576.
# Changes are numbered by the printed parent chain. Human monoclonal antibodies against the spike receptor-binding domain (heavy:light variable regions). IC50 against pseudoviruses bearing the spike of naturally observed variants; lower = stronger; >10 µg/ml means not reached at the top dose. No active / inactive call. The stated detection limit is 0.0005 µg/ml; values near or below 0.001 µg/ml lie at the floor of the assay.
# B1: BD56-1786 (protein)
# chain 1: EVQLVESGGGLVKPGGSLRLSCAGSGFTFSNYIMNWVRQAPGKGLEWVSSISSSSTEIYYAVSVKGRFTISRDNAKRSVYLQMNSLRVEDTAVYYCARDPGAFDWASGSLDYYGMSVWGQGTTVTVSS
# chain 2: QSVLTQPPSVSGAPGQRVTVSCTGSSSNIGADYAVHWYRQLPGTAPKLLIYGNTNRPSGVPDRFSGSKSGTSASLAITGLQAEDEADYYCQSFDKSLSGVVFGGGTKLTVL
# B2: BD56-1790 (protein)
# chain 1: EVQLLESGGGLVQPGRSLRLSCAASGFTFDDYAMHWVRQAPGKGLEWVSGITWNSGTIGYADSVMGRFIISRDNAKSSLYLQVNSLRGEDTALYYCAKDRNSGYRDYYYMDVWGKGTTVTVSS
# chain 2: SYVLTQPPSVSVAPGQTARITCGGNNIGSKSVHWYQQKPGQAPVLVVYDDADRPSGIPERFSGSNSGNTATLTISRVEAGDEADYYCQVWDSNSDHVVFGGGTKLTVL
# B3: COV2-2828 (protein)
# chain 1: EVQLVESGGGLVKPGGSLRLSCAASGFTFRDYSMNWVRQAPGKGLEWVSSISSGGSYIYYADSVKGRFTISRDNAKNSLYLQMNSLRAEDTAVYYCARGGSILWWLIDYWGQGTLVTVSS
# chain 2: NFMLTQPHSVSESPGKTVTISCTGSSGSIASNYVQWYQQRPGSAPTTVIYEDNQRPSGVPDRFSGSIDSSSNSASLTISGLKTEDEADYYCQSYDSTSRVVFGGGTKLTVL
# B4: BD56-1793 (protein)
# chain 1: EVQLVESGGGLVQPGGSLRLSCVASTFVFSSYDMHWVRQAAGKGLEWVSAIDSDGDTYYAASVKGRFTISRENAKSSLYLQMNSLRAGDAAVYYCARGPGATGYFLHWGQGTLVTVSS
# chain 2: SYVLTQPPSVSVAPGETASITCGGNDLGSKTVHWYQQKPGQAPSLIIYYDSDRPSGIPERFSGSNSGKTATLTISRVEAGDEADYYCQVWENSRDPSWVFGGGTKLTVL
# B5: BD56-1794 (protein)
# chain 1: QVQLVQSGPEVKKPGSSVKVSCKASGGTFRSNSISWVRQVPGQGLEWMGRIIPTLGIGNYAQKFQGRVTIIADRSTSIAHMELSSLRSEDTAVYFCARDQGYSSSGSVYYMDVWGQGTTVSVSS
# chain 2: QSVLTQPPSVSGAPGQRVTISCTGSNSNIGAGYDVHWYQHLPGTAPKLLMFVNNNRPSGVPDRFSGSKSDTSASLAISGLQAEDEADYYCQSYDSSLSDVIFGGGTKVTVL
# B6: BD56-1796 (protein)
# chain 1: QVQLVQSGAEVKNPGSSVKVSCKASGGTFSSYVICWVRQAPGQGLEWMGGIISTLDIANYAPRFQGRVSITADKSTTTAYMELSSLRSEDTAIYYCARAAPSHCSSTRCYDIWGQGTLVTVSS
# chain 2: B1 chain 2 with V20I, G30E, D32G, A34D, R39Q, G52D, F93Y, K95S, S98I, V100S
# B7: BD56-1797 (protein)
# chain 1: QVTLRESGPALVKPTQTLTLTCTFSGFSLSTSGMCVNWIRQPPGKALEWLARIDWDGDRYFNKSLETRLTISKDTSKNQVVLTMTNMDPVDTATYYCARMREVRGGDYGMDVWGQGTTVTVSS
# chain 2: QSVLTQPPSASGTPGHRVSISCSGSTSNIERNTVNWYQQVPGTAPKLLIYMNNQRPSGVPDRFSGSKSGTSASLAVSGLRSEDEADYYCATWDDSLNGWVFGGGTKLTVL
# B8: BD56-1801 (protein)
# chain 1: QVQLVESGGGVVQPGRSLRLSCAASGFTFKSYGMHWVRQAPGKGLEWVAVISYDGSFKYYADSVKGRFTISRDNSKNTLYLQMSSLRPEDTAVYYCAKEEGEMTTYFDYWGQGTLVTVSS
# chain 2: DIQMTQSPSSLSASVGDRVTITCRASQSISSYLNWFQQKPGKAPKLLIYDASSLQSGVPSRFSGSGSGTHFTLSISSLQPEDFATYYCQQSYSTPPWTFAQGTRVEVK
# B9: BD56-1803 (protein)
# chain 1: EVQLVESGGGLVQPGRSLRLSCAASGFIFDDYAMHWVRQPPGKGLEWVSGVTSNSATIGYADSVKGRFIITRDNAENSMYLQMRSLRVEDTALYYCVKDSYRGRTMVRGYEDYGLDVWGQGTTVTVSS
# chain 2: SFVLTQPPSVSVAPGQTARITCGGTFIATKSVHWCQQRPGQAPVLVVHDDADRPSGIPERFSGSKSGNTATLTISRVEAGDEADYYCQVWDSSSDHVVFGGGTHLTVL
# B10: BD56-1806 (protein)
# chain 1: EVQLVESGGGLVQPGGSLRLSCAASGFTFRSYDMHWVRQVTGKGLDWVSTIGTAGDGYYADSVKGRFTISRENAKNSLYLQMNSLRAGDTAVYYCARVGYTSSLTYWYLDVWGRGTLVTVSS
# chain 2: DIQMTQSPSSLSASIGDRVTITCRASQTIRSYLNWYQQKPGKAPNLLIYAASTLQSGVPSRFSGSGSGTDFTLTISSLQPEDFATYYCQQSYTTPLFTFGPGTKVDLK
# B11: BD56-1812 (protein)
# chain 1: EVQLVESGGGLVQPGGSLRLSCAASGFTFSNYDMHWVRQAAGTGLEWVSLIGTAGDTYYPDSVKGRFTISRENAKSSLYLQMNSLRVGDTAVYYCARASYDTDDLGGPHLDYWGQGTLVAVSS
# chain 2: DIQLTQSPSSLSASLGDRVTLTCRASQSISRYLHWYQQKPGKAPKLLIYVASTLQRGVPSRFSGSGSGTDFTLTISSLQPEDFATYYCQQSYTSPLYTFGQGTKLEMK
# B12: BD56-1813 (protein)
# chain 1: HVRLVESGGGVVQPGRSLRLSCAASGFTFSNYGMHWVRQAPGKGLEWVASIFYDGSNKFYRDSVKGRFTISRDNSNNALYLQMNSLRAEDTAVYYCAKEDRPTTVTTFTAFDLWGQGTLVTVSP
# chain 2: SYVLTQPPSVSVAPGKTASITCGGDSIGSKNVHWYQQKPGQAPILVIYYDTDRPSGIPERFSGSNSGNTATLTISRVEAGDEADYYCQVWDSSVVFGGGTKLTVL
# Assays:
# Experiment in all cases: pseudovirus neutralization IC50; higher = weaker neutralization
# [1] = biological target: SARS-CoV-2 Omicron BA.1 spike pseudovirus
# Protocol: (§1)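 Single-round VSV luciferase pseudovirus mixed with antibody dilutions for 1 h and put on Huh-7 cells for about a day; IC50 from the dose curve.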
# [2] = biological target: SARS-CoV-2 Omicron BA.2 spike pseudovirus
# Protocol: as §1
# [3] = biological target: SARS-CoV-2 Omicron BA.2.75 spike pseudovirus
# Protocol: as §1
# [4] = biological target: SARS-CoV-2 Omicron BA.5 spike pseudovirus
# Protocol: as §1
# [5] = biological target: SARS-CoV-2 Omicron BQ.1.1 spike pseudovirus
# Protocol: as §1
# [6] = biological target: SARS-CoV-2 Omicron XBB spike pseudovirus
# Protocol: as §1
# [7] = biological target: SARS-CoV-2 early D614G spike pseudovirus
# Protocol: as §1
Binder,pseudovirus neutralization IC50 [1] [µg/mL],pseudovirus neutralization IC50 [2] [µg/mL],pseudovirus neutralization IC50 [3] [µg/mL],pseudovirus neutralization IC50 [4] [µg/mL],pseudovirus neutralization IC50 [5] [µg/mL],pseudovirus neutralization IC50 [6] [µg/mL],pseudovirus neutralization IC50 [7] [µg/mL]
B1,0.181,6.2,> 10,2.57,> 10,> 10,0.189
B2,0.167,0.261,0.081,> 10,> 10,> 10,0.144
B3,> 10,> 10,> 10,> 10,> 10,> 10,1.52
B4,0.937,0.059,0.0332,> 10,> 10,0.98,0.711
B5,0.656,1.04,0.289,> 10,> 10,> 10,0.373
B6,0.0819,0.0752,0.12,> 10,> 10,> 10,0.29
B7,> 10,0.00842,> 10,0.00461,> 10,> 10,0.0186
B8,3.99,4.02,5.81,2.58,4.45,2.79,1.06
B9,0.0654,0.0864,0.0296,0.0997,> 10,> 10,0.0292
B10,> 10,> 10,> 10,> 10,> 10,> 10,> 10
B11,> 10,> 10,> 10,> 10,> 10,> 10,> 10
B12,> 10,> 10,> 10,> 10,> 10,> 10,> 10
